This is a selection; strong and weak results do not stand in their true shares. Results filed as inconclusive are left out. The source made the active and inactive calls. Calls come from the whole dose curve; as a rule, active = well fitted inhibition curve with a large enough effect; inconclusive = small, poorly fitted or top-dose-only effect, or effect the other way; inactive = no such curve, though single readings can be large or run the other way.
Assay: Confirmation screen for delayed death inhibitors of the malarial parasite plastid, 48 hour incubation; note: nearly all actives have a fitted effect of over 65% in size
Details: P. falciparum-infected erythrocytes, luciferase growth
For `NC(=O)Nc1ccc([As](=O)(O)O)cc1`, the Potency was active: 12.6 µM.

— PubChem BioAssay AID504850 (National Center for Advancing Translational Sciences (NCATS), 2011)
Potency is the fitted concentration of half-maximal effect.
